The values below come from paper PMC12672077.

Construct, isoform or probe ends are uncertain for at least one entry. At least one verdict rests on a figure or table, not on a statement of the authors.

The target in this data set is UL41 (VHS) (Pseudorabies virus (Suid alphaherpesvirus 1)) (UniProt G3G8Y5). Put plainly: EMSA. The settings on record: 2 uM protein, 2 uM RNA; recombinant protein; protein details: His tag from pET-28a(+) (Ni-NTA purified).
For CUUAUUUUUCUUUCUUGGCC [Tyk2-5], the binding result is given as “binds”.

For the sequence UUUAUAUUUUCCUCUUAGAU [IRF9-4], the binding result was “binds”. As for CGAUGGGGAAACUGAGGCCC [Tyk2-2], the binding result was “binds”.

With GGGCAGUUUCCCGGAGUGUG [IRF9-2], the binding result is “binds”. As to GGUAAUAAACUCAUGUUUUCUCU [Tyk2-6], the binding result is “binds”. As to CUUGCUUUCUUCUUUCCUUUACU [STAT2-2], the binding result is recorded as “binds”. The same measure for GGUUGUGGACCUGGACAAAG [STAT2-5]: “binds”; for CACCUGCCGGGAGCAUGCCU [Tyk2-3]: “binds”.

In the case of GGAUUCCCUGGAAACAUGCA [IRF9-3], the binding result is given as “binds”.

As for GGUGGCUGUUUCUUGUCUGUUA [STAT2-3], the binding result is “binds”. Under CAGGAAGAAGCCGCGGGGAC [Tyk2-1] stands “binds”; under UCAGCCCUUUUCCCAGGAU [STAT2-1], “binds”. GCGACAGCCUGGACAGCAAC [IRF9-1]: the binding result is on record as “binds”. Under CCUGCUCCAGGAUGAAACCA [Tyk2-4] stands “binds”; under GGGCGCGGGGACUGCAACCC [STAT2-4], “binds”.
